The values that follow come from US20070099199A1.

Several values for one entry are separate records, joined by “and”; a condition that tells them apart may be missing. Equal entries are not always repeated.

B1: GST-KIAA0380 PDZ domain 1, clone #25.6 (protein)
chain: MSPILGYWKIKGLVQPTRLLLEYLEEKYEEHLYERDEGDKWRNKKFELGLEFPNLPYYIDGDVKLTQSMAIIRYIADKHNMLGGCPKERAEISMLEGAVLDIRYGVSRIAYSKDFETLKVDFLSKLPEMLKMFEDRLCHKTYLNGDHVTHPDFMLYDALDVVLYMDPMCLDAFPKLVCFKKRIEAIPQIDKYLKSSKYIAWPLQGWQATFGGGDHPPKSDLIEGRQRCVIIQKDQHGFGFTVSGDRIVLVQSVRPGGAAMKAGVKEGDRIIKVNGTMVTNSSHLEVVKLIKSGAYVALTLLGSS
B2: GST-KIAA0973 PDZ domain 1, clone #148.5 (protein)
chain: MSPILGYWKIKGLVQPTRLLLEYLEEKYEEHLYERDEGDKWRNKKFELGLEFPNLPYYIDGDVKLTQSMAIIRYIADKHNMLGGCPKERAEISMLEGAVLDIRYGVSRIAYSKDFETLKVDFLSKLPEMLKMFEDRLCHKTYLNGDHVTHPDFMLYDALDVVLYMDPMCLDAFPKLVCFKKRIEAIPQIDKYLKSSKYIAWPLQGWQATFGGGDHPPKSDLIEGRGLRSPITIQRSGKKYGFTLRAIRVYMGDTDVYSVHHIVWHVEEGGPAQEAGLCAGDLITHVNGEPVHGMVHPEVVELILKSGNKVAVTTTPFE
B3: GST-X-11 beta PDZ domain 1 (protein)
chain: MSPILGYWKIKGLVQPTRLLLEYLEEKYEEHLYERDEGDKWRNKKFELGLEFPNLPYYIDGDVKLTQSMAIIRYIADKHNMLGGCPKERAEISMLEGAVLDIRYGVSRIAYSKDFETLKVDFLSKLPEMLKMFEDRLCHKTYLNGDHVTHPDFMLYDALDVVLYMDPMCLDAFPKLVCFKKRIEAIPQIDKYLKSSKYIAWPLQGWQATFGGGDHPPKSDLIEGRIHFSNSENCKELQLEKHKGEILGVVVVESGWGSILPTVILANMMNGGPAARSGKLSIGDQIMSINGTSLVGLPLATCQGIIKGLKNQTQVKLNIVSCPPVTTVLIKRNSS
B4: GST-INADL PDZ domain 8 (protein)
chain: MSPILGYWKIKGLVQPTRLLLEYLEEKYEEHLYERDEGDKWRNKKFELGLEFPNLPYYIDGDVKLTQSMAIIRYIADKHNMLGGCPKERAEISMLEGAVLDIRYGVSRIAYSKDFETLKVDFLSKLPEMLKMFEDRLCHKTYLNGDHVTHPDFMLYDALDVVLYMDPMCLDAFPKLVCFKKRIEAIPQIDKYLKSSKYIAWPLQGWQATFGGGDHPPKSDLIEGRPATCPIVPGQEMIIEISKGRSGLGLSIVGGKDTPLNAIVIHEVYEEGAAARDGRLWAGDQILEVNGVDLRNSSHEEAITALRQTPQKVRLVVY
B5: GST-MAGI1 PDZ domain 3 (protein)
chain: MSPILGYWKIKGLVQPTRLLLEYLEEKYEEHLYERDEGDKWRNKKFELGLEFPNLPYYIDGDVKLTQSMAIIRYIADKHNMLGGCPKERAEISMLEGAVLDIRYGVSRIAYSKDFETLKVDFLSKLPEMLKMFEDRLCHKTYLNGDHVTHPDFMLYDALDVVLYMDPMCLDAFPKLVCFKKRIEAIPQIDKYLKSSKYIAWPLQGWQATFGGGDHPPKSDLIEGRPATQPELITVHIVKGPMGFGFTIADSPGGGGQRVKQIVDSPRCRGLKEGDLIVEVNKKNVQALTHNQVVDMLVECPKGSEVTLLVQRGGNLS
B6: GST-GTPase Activating Enzyme PDZ domain 1 (protein)
chain: MSPILGYWKIKGLVQPTRLLLEYLEEKYEEHLYERDEGDKWRNKKFELGLEFPNLPYYIDGDVKLTQSMAIIRYIADKHNMLGGCPKERAEISMLEGAVLDIRYGVSRIAYSKDFETLKVDFLSKLPEMLKMFEDRLCHKTYLNGDHVTHPDFMLYDALDVVLYMDPMCLDAFPKLVCFKKRIEAIPQIDKYLKSSKYIAWPLQGWQATFGGGDHPPKSDLIEGRSRGCETRELALPRDGQGRLGFEVDAEGFVTHVERFTFAETAGLRPGARLLRVCGQTLPSLRPEAAAQLLRSAPKVCVTVLPPDESGRP
B7: GST-EZRIN Binding Protein 50 PDZ domain 1, clone #167.2 (protein)
chain: MSPILGYWKIKGLVQPTRLLLEYLEEKYEEHLYERDEGDKWRNKKFELGLEFPNLPYYIDGDVKLTQSMAIIRYIADKHNMLGGCPKERAEISMLEGAVLDIRYGVSRIAYSKDFETLKVDFLSKLPEMLKMFEDRLCHKTYLNGDHVTHPDFMLYDALDVVLYMDPMCLDAFPKLVCFKKRIEAIPQIDKYLKSSKYIAWPLQGWQATFGGGDHPPKSDLIEGRILCCLEKGPNGYGFHLHGEKGKLGQYIRLVEPGSPAEKAGLLAGDRLVEVNGENVEKETHQQVVSRIRAALNAVRLLVVDPEFIVTD
B8: GST-Numb Binding Protein PDZ domain 1 (protein)
chain: MSPILGYWKIKGLVQPTRLLLEYLEEKYEEHLYERDEGDKWRNKKFELGLEFPNLPYYIDGDVKLTQSMAIIRYIADKHNMLGGCPKERAEISMLEGAVLDIRYGVSRIAYSKDFETLKVDFLSKLPEMLKMFEDRLCHKTYLNGDHVTHPDFMLYDALDVVLYMDPMCLDAFPKLVCFKKRIEAIPQIDKYLKSSKYIAWPLQGWQATFGGGDHPPKSDLIEGRPDGEITSIKINRVDPSESLSIRLVGGSETPLVHIIIQHIYRDGVIARDGRLLPGDIILKVNGMDISNVPHNYAVRLLRQPCQVLWLTVMREQKFRSRNSS
B9: GST-ERBIN PDZ domain 1 (protein)
chain: MSPILGYWKIKGLVQPTRLLLEYLEEKYEEHLYERDEGDKWRNKKFELGLEFPNLPYYIDGDVKLTQSMAIIRYIADKHNMLGGCPKERAEISMLEGAVLDIRYGVSRIAYSKDFETLKVDFLSKLPEMLKMFEDRLCHKTYLNGDHVTHPDFMLYDALDVVLYMDPMCLDAFPKLVCFKKRIEAIPQIDKYLKSSKYIAWPLQGWQATFGGGDHPPKSDLIEGRQGHELAKQEIRVRVEKDPELGFSISGGVGGRGNPFRPDDDGIFVTRVQPEGPASKLLQPGDKIIQANGYSFINIEHGQAVSLLKTFQNTVELIIVREVSS
B10: GST-TIAM 2 PDZ domain 1 (protein)
chain: MSPILGYWKIKGLVQPTRLLLEYLEEKYEEHLYERDEGDKWRNKKFELGLEFPNLPYYIDGDVKLTQSMAIIRYIADKHNMLGGCPKERAEISMLEGAVLDIRYGVSRIAYSKDFETLKVDFLSKLPEMLKMFEDRLCHKTYLNGDHVTHPDFMLYDALDVVLYMDPMCLDAFPKLVCFKKRIEAIPQIDKYLKSSKYIAWPLQGWQATFGGGDHPPKSDLIEGRPLNVYDVQLTKTGSVCDFGFAVTAQVDERQHLSRIFISDVLPDGLAYGEGLRKGNEIMTLNGEAVSDLDLKQMEALFSEKSVGLTLIARPPDTKATL
B11: GST-INADL PDZ domain 4 (protein)
chain: MSPILGYWKIKGLVQPTRLLLEYLEEKYEEHLYERDEGDKWRNKKFELGLEFPNLPYYIDGDVKLTQSMAIIRYIADKHNMLGGCPKERAEISMLEGAVLDIRYGVSRIAYSKDFETLKVDFLSKLPEMLKMFEDRLCHKTYLNGDHVTHPDFMLYDALDVVLYMDPMCLDAFPKLVCFKKRIEAIPQIDKYLKSSKYIAWPLQGWQATFGGGDHPPKSDLIEGRNSDDAELQKYSKLLPIHTLRLGVEVDSFDGHHYISSIVSGGPVDTLGLLQPEDELLEVNGMQLYGKSRREAVSFLKEVPPPFTLVCCRRLFDDEAS
B12: GST-Shroom PDZ domain 1 (protein)
chain: MSPILGYWKIKGLVQPTRLLLEYLEEKYEEHLYERDEGDKWRNKKFELGLEFPNLPYYIDGDVKLTQSMAIIRYIADKHNMLGGCPKERAEISMLEGAVLDIRYGVSRIAYSKDFETLKVDFLSKLPEMLKMFEDRLCHKTYLNGDHVTHPDFMLYDALDVVLYMDPMCLDAFPKLVCFKKRIEAIPQIDKYLKSSKYIAWPLQGWQATFGGGDHPPKSDLIEGRIYLEAFLEGGAPWGFTLKGGLEHGEPLIISKVEEGGKADTLSSKLQAGDEVVHINEVTLSSSRKEAVSLVKGSYKTLRLVVRRDVCTDPGH
B13: GST-KIAA0147 PDZ domain 2 (protein)
chain: MSPILGYWKIKGLVQPTRLLLEYLEEKYEEHLYERDEGDKWRNKKFELGLEFPNLPYYIDGDVKLTQSMAIIRYIADKHNMLGGCPKERAEISMLEGAVLDIRYGVSRIAYSKDFETLKVDFLSKLPEMLKMFEDRLCHKTYLNGDHVTHPDFMLYDALDVVLYMDPMCLDAFPKLVCFKKRIEAIPQIDKYLKSSKYIAWPLQGWQATFGGGDHPPKSDLIEGRPLRQRHVACLARSERGLGFSIAGGKGSTPYRAGDAGIFVSRIAEGGAAHRAGTLQVGDRVLSINGVDVTEARHDHAVSLLTAASPTIALLLEREAGG
B14: GST-ZO-2 PDZ domain 2 (protein)
chain: MSPILGYWKIKGLVQPTRLLLEYLEEKYEEHLYERDEGDKWRNKKFELGLEFPNLPYYIDGDVKLTQSMAIIRYIADKHNMLGGCPKERAEISMLEGAVLDIRYGVSRIAYSKDFETLKVDFLSKLPEMLKMFEDRLCHKTYLNGDHVTHPDFMLYDALDVVLYMDPMCLDAFPKLVCFKKRIEAIPQIDKYLKSSKYIAWPLQGWQATFGGGDHPPKSDLIEGRRVLLMKSRANEEYGLRLGSQIFVKEMTRTGLATKDGNLHEGDIILKINGTVTENMSLTDARKLIEKSRGKLQLVVLRDS
B15: GST-CASK PDZ domain 1 (protein)
chain: MSPILGYWKIKGLVQPTRLLLEYLEEKYEEHLYERDEGDKWRNKKFELGLEFPNLPYYIDGDVKLTQSMAIIRYIADKHNMLGGCPKERAEISMLEGAVLDIRYGVSRIAYSKDFETLKVDFLSKLPEMLKMFEDRLCHKTYLNGDHVTHPDFMLYDALDVVLYMDPMCLDAFPKLVCFKKRIEAIPQIDKYLKSSKYIAWPLQGWQATFGGGDHPPKSDLIEGRTRVRLVQFQKNTDEPMGITLKMNELNHCIVARIMHGGMIHRQGTLHVGDEIREINGISVANQTVEQLQKMLREMRGSITFKIVPSYRTQS

This test addresses HPV16 E6 C-terminal PDZ ligand (PL) peptide, biotinylated (human papillomavirus type 16). The test can be described thus: G assay ELISA; immobilised GST-PDZ, biotin-peptide 10 uM. For orientation: ELISA stands for enzyme-linked immunosorbent assay.
As to B1, the Ave OD amounted to 0.376 A450 nm and the OD S/N (ratio vs GST only) was found to be 1.95.

As for B2, the Ave OD was determined as 0.378 A450 nm and the OD S/N (ratio vs GST only) is 1.68.

As to B3, the Ave OD is 0.352 A450 nm and the OD S/N (ratio vs GST only) is 2.02.

Regarding B4, the Ave OD turned out to be 0.388 A450 nm and the OD S/N (ratio vs GST only) was determined as 1.58.

Turning to B5, the Ave OD stood at 0.354 A450 nm and the OD S/N (ratio vs GST only) amounted to 1.46.

For B6, the Ave OD worked out at 0.35 A450 nm and the OD S/N (ratio vs GST only) was 1.12.

On to B7, for which the Ave OD is 0.381 A450 nm and 0.355 A450 nm; the OD S/N (ratio vs GST only) is 1.94 and 2.28.

B8: the Ave OD came to 0.352 A450 nm and the OD S/N (ratio vs GST only) was 3.17.

B9: the Ave OD is 0.36 A450 nm and 0.342 A450 nm; the OD S/N (ratio vs GST only) is 1.82 and 1.3.

Consider B10, for which the Ave OD was 0.356 A450 nm and the OD S/N (ratio vs GST only) was 2.05.

In the case of B11, the Ave OD was 0.357 A450 nm and the OD S/N (ratio vs GST only) was 2.15.

With B12, the Ave OD stood at 0.361 A450 nm and the OD S/N (ratio vs GST only) is 3.25.

As for B13, the Ave OD was determined as 0.374 A450 nm and the OD S/N (ratio vs GST only) is 2.46.

Regarding B14, the Ave OD was determined as 0.356 A450 nm and the OD S/N (ratio vs GST only) was 2.15.

As to B15, the Ave OD turned out to be 0.36 A450 nm and the OD S/N (ratio vs GST only) is 1.15.
